Measurements reported in PubChem BioAssay AID624099 (ICCB-Longwood, 2012)

Assay: 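Host factors E2 relies on to silence an HPV18 LCR reporter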 (primary screen)
Cell system: human C33A cervical carcinoma cells (HPV-negative) stably expressing BPV1 E2 and an HPV18 LCR luciferase reporter
Reagent: siRNA pool against human genes, 40 nM
Time to read-out: 72 h
Measured: 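HPV18 LCR reporter light per well, converted to plate-wise z-scores that exclude control wells, and averaged over triplicate plates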
Scale: mean z-score and z-score: higher = stronger reporter signal, weaker E2 silencing
Call rule: 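Mean z ≥ 2 together with z ≥ 2 in two or more of the three replicates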
This is an unselected part of about 21,000 reagents. 497 of all reagents (2.4%) were called active. 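Higher z means weaker E2 silencing; only reporter increases were scored, and knock-downs that hurt cell survival may mask genuine repressor factors.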 Reagents against one gene are numbered here.

Silencing of HSD11B1 (hydroxysteroid 11-beta dehydrogenase 1) came out at: mean z-score 1.31; z-score, replicate A = 1.47; z-score, replicate B = 1.64; z-score, replicate C = 0.82; inactive.
Against LINC01098 (long independently transcribed non-coding RNA 1098), the values are mean z-score 1; z-score, replicate A = 0.92; z-score, replicate B = 1.08; inactive.
Silencing of TCP11L2 (t-complex 11 like 2) gave: mean z-score 0.49; z-score, replicate A = 0.35; z-score, replicate B = 0.74; z-score, replicate C = 0.38; inactive.
Knock-down of ZNF839 (zinc finger protein 839) resulted in: mean z-score 0.52; z-score, replicate A = 0.72; z-score, replicate B = 0.39; z-score, replicate C = 0.45; inactive.
POLRMT (RNA polymerase mitochondrial) scored mean z-score 0.34; z-score, replicate A = 0.39; z-score, replicate B = 0.56; z-score, replicate C = 0.09; inactive.
ZMYM2 (zinc finger MYM-type containing 2) showed mean z-score -1.08; z-score, replicate A = -1.26; z-score, replicate B = -1; z-score, replicate C = -0.98; inactive.
For TGM6 (transglutaminase 6) the deposit lists mean z-score -2.04; z-score, replicate A = -2.13; z-score, replicate B = -2.11; z-score, replicate C = -1.86; inactive.
For IMMP1L (inner mitochondrial membrane peptidase subunit 1), the values are mean z-score 1.7; z-score, replicate A = 2.12; z-score, replicate B = 1.29; z-score, replicate C = 1.69; inactive.
SSPN (sarcospan) showed mean z-score 0.11; z-score, replicate A = 0.11; z-score, replicate B = 0.13; z-score, replicate C = 0.1; inactive.
NFATC4 (nuclear factor of activated T cells 4) scored mean z-score 0.53; z-score, replicate A = 0.52; z-score, replicate B = 0.58; z-score, replicate C = 0.48; inactive.
Depletion of FAM120C (family with sequence similarity 120 member C) came out at: mean z-score -0.31; z-score, replicate A = -0.48; z-score, replicate B = -0.2; z-score, replicate C = -0.25; inactive.
For DNAI1 (dynein axonemal intermediate chain 1), the values are mean z-score 0.05; z-score, replicate A = -0.09; z-score, replicate B = 0.08; z-score, replicate C = 0.17; inactive.
For LRP11 (LDL receptor related protein 11), the entry reads mean z-score -1.09; z-score, replicate A = -0.89; z-score, replicate B = -1.19; z-score, replicate C = -1.18; inactive.
Depletion of KRT79 (keratin 79) gave: mean z-score -0.44; z-score, replicate A = -0.23; z-score, replicate B = -0.57; z-score, replicate C = -0.54; inactive.
After knock-down of KCNK16 (potassium two pore domain channel subfamily K member 16) the results were mean z-score 0.28; z-score, replicate A = 0.14; z-score, replicate B = 0.56; z-score, replicate C = 0.14; inactive.
Knock-down of FOXG1 (forkhead box G1) #1 resulted in: mean z-score -0.36; z-score, replicate A = -0.22; z-score, replicate B = -0.51; z-score, replicate C = -0.33; inactive.
After knock-down of FOXG1 (forkhead box G1) #2 the results were mean z-score 1.44; z-score, replicate A = 1.38; z-score, replicate B = 1.44; z-score, replicate C = 1.51; inactive.
After knock-down of MYL6 (myosin light chain 6) the results were mean z-score -1.03; z-score, replicate A = -1.14; z-score, replicate B = -0.58; z-score, replicate C = -1.36; inactive.
RNF152 (ring finger protein 152) scored mean z-score 1.11; z-score, replicate A = 1.16; z-score, replicate B = 1.11; z-score, replicate C = 1.07; inactive.
LOC387833 (retired record) scored mean z-score 1.26; z-score, replicate A = 1.04; z-score, replicate B = 1.36; z-score, replicate C = 1.39; inactive.
After knock-down of SMIM34 (small integral membrane protein 34), the screen gave mean z-score -1.35; z-score, replicate A = -1.19; z-score, replicate B = -1.45; z-score, replicate C = -1.41; inactive.
